Measured values from several laboratories, pooled; numbers as filed in NIAID ChemDB.

Common to all: tests in culture; species: HIV-1; measure: EC50

ECn: concentration that inhibits the pathogen or its effect by n%.

SMILES | strain | mutations | cell line | read by | result
CC(C)C1=C2[C@H]3CC[C@@H]4[C@@]5(C)CC[C@H](OC(=O)[C@H]6C[C@@H](C(=O)O)C6(C)C)C(C)(C)[C@@H]5CC[C@@]4(C)[C@]3(C)CC[C@@]2(CC(=O)NCC2(NC(=O)c3ccc(Cl)cc3)CCCCC2)CC1=O | 92HT599 | - | MT-2 | p24 / ELISA | <1 µM
Nc1ccn([C@H]2CC[C@@H](CO)O2)c(=O)n1 | NL4-3 | H258Q A312T | - | β-galactosidase | 0.633 µM
O=Cc1coc2ccccc2c1=O | IIIB | - | HTLV-I-bearing MT-4 | MTT | >40 µg/mL
O=C1Nc2ccc(Cl)cc2C(OCCC2CC2)(C(F)(F)F)O1 | - | - | - | - | <0.00804 µM
COc1cc(-c2ccc(N=Nc3ccc4c(S(=O)(=O)O)cc(S(=O)(=O)O)c(N)c4c3O)c(OC)c2)ccc1N=Nc1ccc2c(S(=O)(=O)O)cc(S(=O)(=O)O)c(N)c2c1O | PM16 | - | CEM + CEM-SS | RT activity | 0.6 µM
CCOC(=O)CCCCCNC(=O)Nc1cccc2c(C(=O)C(=O)N3CCN(C(=O)c4ccccc4)C[C@H]3C)c[nH]c12 | - | - | HeLa | luciferase / reporter gene | <1 µM
Cc1cc(C#N)cc(C(=O)c2ccccc2OCC(=O)Nc2ccc(S(N)(=O)=O)cc2C)c1 | - | RT-K103N P225H | HeLa MAGI + HeLa | β-galactosidase | <0.005 µM
COc1cc(Cl)ccc1C(=O)NCC[C@@]12CC[C@]3(C)[C@H](CC[C@@H]4[C@@]5(C)CC[C@H](OC(=O)[C@H]6C[C@@H](C(=O)O)C6(C)C)C(C)(C)[C@@H]5CC[C@]43C)C1=C(C(C)C)C(=O)C2 | 92HT599 | - | MT-2 | p24 / ELISA | <1 µM
Cc1ncc(-c2ccc(N(C)CCOc3ccc(F)cc3)nc2)c(N2CCC(C)(C)CC2)c1[C@H](OC(C)(C)C)C(=O)O | NL4-3 | - | MT-2 | luminescence | 0.004 µM
CN1N=C(N)c2cn([C@@H]3O[C@H](COP(=O)(O)O)[C@@H](O)[C@H]3O)c3ncnc1c23 | H-1112 | - | CEM + CEM-SS | syncytia | 0.16 µM
Cc1ncc(-c2ccc(N(C)CCOc3ccc(F)cc3C#N)cn2)c(N2CCC(C)(C)CC2)c1[C@H](OC(C)(C)C)C(=O)O | NL4-3 | - | MT-2 | luminescence | 0.0126 µM
CCOC(=O)CCCNC(=O)Nc1ccc(F)c2c(C(=O)C(=O)N3CCN(C(=O)c4ccccc4)CC3)c[nH]c12 | - | - | HeLa | luciferase / reporter gene | <1 µM
Cc1ncc(-c2ccc(OCCCN3CCOCC3)cn2)c(N2CCC(C)(C)CC2)c1[C@H](OC(C)(C)C)C(=O)O | NL4-3 | - | MT-2 | luminescence | 0.0213 µM
N#Cc1coc2ccccc2c1=O | IIIB | - | HTLV-I-bearing MT-4 | MTT | >200 µg/mL
Cc1nn(C(C)C)c(Sc2cc(Cl)cc(Cl)c2)c1Cc1ccncc1 | HXB2 | - | MT-4 + MT4 | cytopathic effect / MTT | 0.003 µM
C/C=C\COC1(C(F)(F)F)OC(=O)Nc2ccc(Cl)cc21 | - | RT-K103N | - | - | <0.237 µM
CC(C)C1=C2[C@H]3CC[C@@H]4[C@@]5(C)CC[C@H](OC(=O)[C@H]6C[C@@H](C(=O)O)C6(C)C)C(C)(C)[C@@H]5CC[C@@]4(C)[C@]3(C)CC[C@@]2([C@@H](O)CNCC(C)(C)NC(=O)c2ccncn2)CC1=O | 92HT599 | - | MT-2 | p24 / ELISA | <1 µM
Cc1ncc(-c2ccc(OCCOc3ccc(C(=O)O)cc3)cn2)c(N2CCC(C)(C)CC2)c1[C@H](OC(C)(C)C)C(=O)O | NL4-3 | - | MT-2 | luminescence | 0.1259 µM
CC(C)C1=C2[C@H]3CC[C@@H]4[C@@]5(C)CC[C@H](OC(=O)[C@H]6C[C@@H](C(=O)O)C6(C)C)C(C)(C)[C@@H]5CC[C@@]4(C)[C@]3(C)CC[C@@]2(CCNCc2ccc(Cl)cc2OCCN2CCCCC2)CC1=O | 92HT599 | - | MT-2 | p24 / ELISA | <1 µM
C[C@H]1CO[C@@H]2Cn3cc(C(=O)NCc4ccc(F)cc4F)c(=O)c(O)c3C(=O)N12 | NL4-3 | T97A E138K G140S Q148H | CEM-GXR | GFP | 0.177 µM
N#CC(=C1CCN(C(=O)C(=O)c2c[nH]c3c(NC(=O)Nc4ccccc4C(=O)O)cccc23)CC1)c1ccccc1 | - | - | HeLa | luciferase / reporter gene | <1 µM
CC(C)C1=C2[C@H]3CC[C@@H]4[C@@]5(C)CC[C@H](OC(=O)[C@H]6C[C@@H](C(=O)O)C6(C)C)C(C)(C)[C@@H]5CC[C@@]4(C)[C@]3(C)CC[C@@]2([C@@H](O)CNCc2ccc(N3CCC(N4CCOCC4)CC3)cc2)CC1=O | 92HT599 | - | MT-2 | p24 / ELISA | <1 µM
COc1ccnc2[nH]cc(C(=O)C(=O)N3CCN(C(=O)c4ccccc4)C[C@H]3C)c12 | QH0692 | - | TZM-bl | luciferase | 0.02 µM
O=C1Nc2ccc(Cl)cc2[C@@](C#CC2CC2)(C(F)(F)F)O1 | MJ4 C | N348I | HEK293T | luciferase | 7.65 nM
CC(C)=CCN1CC(C)Cn2c(=S)[nH]c3cccc1c32 | RF | - | CEM(SS) + CEM-SS | cytopathic effect / XTT | 1.4 µM
Cc1ccc(C)n1-c1ccc(C(=O)O)c(O)c1 | 92US657 R5 CLADE B | - | PBMC/5.25M7 | luciferase / cell fusion | 28.19 µM
C=C(C)[C@@H]1CC[C@]2(C(=O)NCCCCCCCC(=O)N[C@@H](CC(C)C)[C@@H](O)CC(=O)O)CC[C@]3(C)[C@H](CC[C@@H]4[C@@]5(C)CC[C@H](O)C(C)(C)[C@@H]5CC[C@]43C)[C@@H]12 | LAI | - | CEM + CEM-4 | p24 | 0.1 µM
Nc1ccn([C@H]2S[C@@H](CO)C=C2F)c(=O)n1 | BRU-184V | RT-M184V | PBMC | RT activity | <125 µM
COC(=O)c1cc(NC(=O)Nc2cccc3c(C(=O)C(=O)N4CCC(=C(C#N)c5ccccc5)CC4)c[nH]c23)cc(C(=O)OC)c1 | - | - | HeLa | luciferase / reporter gene | <1 µM
Cc1ncc(-c2ccc(N(C)CCOc3ccc(F)cc3C(N)=O)cn2)c(N2CCC(C)(C)CC2)c1[C@H](OC(C)(C)C)C(=O)O | NL4-3 | - | MT-2 | luminescence | 0.0398 µM
[2H]C([2H])(CNCC[C@@]12CC[C@]3(C)[C@H](CC[C@@H]4[C@@]5(C)CC[C@H](OC(=O)[C@H]6C[C@@H](C(=O)O)C6(C)C)C(C)(C)[C@@H]5CC[C@]43C)C1=C(C(C)C)C(=O)C2)NC(=O)c1ccc(Cl)cc1 | 92HT599 | - | MT-2 | p24 / ELISA | <1 µM
C[C@@H]1CCO[C@H]2Cn3cc(C(=O)NCc4ccc(F)cc4F)c(=O)c(O)c3C(=O)N12 | NL4-3 | - | CEM-GXR | GFP | 0.0011 µM
CC(C)C1=C2[C@H]3CC[C@@H]4[C@@]5(C)CC[C@H](OC(=O)[C@H]6C[C@@H](C(=O)O)C6(C)C)C(C)(C)[C@@H]5CC[C@@]4(C)[C@]3(C)CC[C@@]2(CC(=O)NCC2(NC(=O)c3ccc(Cl)cc3)CC2)CC1=O | 92HT599 | - | MT-2 | p24 / ELISA | <1 µM
O=Cc1coc2ccc(F)cc2c1=O | IIIB | - | HTLV-I-bearing MT-4 | MTT | >40 µg/mL
COc1cccc2[nH]cc(C(=O)C(=O)N3CCN(C(=O)c4ccccc4)C[C@H]3C)c12 | A018 | - | MT-2/CXCR4 | virus yield | 0.0236 µM
O=C1Nc2ccc(F)cc2C(C#Cc2ccoc2)(C(F)(F)F)O1 | - | - | - | - | <0.00252 µM
O=Cc1coc2ccc(Br)cc2c1=O | IIIB | - | HTLV-I-bearing MT-4 | MTT | >40 µg/mL
CC(C)=CCOC1(C(F)(F)F)OC(=O)Nc2ccc(Cl)cc21 | - | RT-K103N | - | - | <0.083 µM
Cc1ccc2occ(C=O)c(=O)c2c1 | IIIB | - | HTLV-I-bearing MT-4 | MTT | >40 µg/mL
Cc1ncc(-c2ccc(O[C@H](C)COc3ccccc3)cn2)c(N2CCC(C)(C)CC2)c1[C@H](OC(C)(C)C)C(=O)O | NL4-3 | - | MT-2 | luminescence | 0.0009 µM
CC(=O)c1cc2ccccc2oc1=O | IIIB | - | HTLV-I-bearing MT-4 | MTT | >1000 µg/mL
COc1ccnc2[nH]cc(C(=O)C(=O)N3C4CCCC3CN(C(=O)c3ccccc3)C4)c12 | PVO | - | TZM-bl | luciferase | 0.51 µM
CC(C)C1=C2[C@H]3CC[C@@H]4[C@@]5(C)CC[C@H](OC(=O)[C@H]6C[C@@H](C(=O)O)C6(C)C)C(C)(C)[C@@H]5CC[C@@]4(C)[C@]3(C)CC[C@@]2(CCNC(=O)c2ccc(Cl)cc2)CC1=O | 92HT599 | - | MT-2 | p24 / ELISA | <1 µM
COC(=O)C(O)C(O)C(=O)Nc1cccc2c(C(=O)C(=O)N3CCN(C(=O)c4ccccc4)C[C@H]3C)c[nH]c12 | - | - | HeLa | luciferase / reporter gene | <1 µM
CC(C)CN(C[C@@H](O)[C@H](Cc1ccccc1)NC(=O)O[C@H]1CO[C@H]2OCC[C@H]21)S(=O)(=O)c1ccc2c(c1)OCO2 | 92UG029 | - | PHA-PBM | p24 | 0.0005 µM
CC(C)C1=C2[C@H]3CC[C@@H]4[C@@]5(C)CC[C@H](OC(=O)[C@H]6C[C@@H](C(=O)O)C6(C)C)C(C)(C)[C@@H]5CC[C@@]4(C)[C@]3(C)CC[C@@]2(CC(=O)NCC(CCCN)NC(=O)c2ccc(Cl)cc2)CC1=O | 92HT599 | - | MT-2 | p24 / ELISA | <1 µM
COC(=O)CCC(=O)Nc1cccc2c(C(=O)C(=O)N3CCN(C(=O)c4ccccc4)C[C@H]3C)c[nH]c12 | - | - | HeLa | luciferase / reporter gene | <1 µM

5 of the rows above, restated:

| SMILES | strain | mutations | cell line | read by | result |
|---|---|---|---|---|---|
| CC(C)=CCN1CC(C)Cn2c(=S)[nH]c3cccc1c32 | RF | - | CEM(SS) + CEM-SS | cytopathic effect / XTT | 1.4 µM |
| CC(C)C1=C2[C@H]3CC[C@@H]4[C@@]5(C)CC[C@H](OC(=O)[C@H]6C[C@@H](C(=O)O)C6(C)C)C(C)(C)[C@@H]5CC[C@@]4(C)[C@]3(C)CC[C@@]2(CC(=O)NCC2(NC(=O)c3ccc(Cl)cc3)CCCCC2)CC1=O | 92HT599 | - | MT-2 | p24 / ELISA | <1 µM |
| N#Cc1coc2ccccc2c1=O | IIIB | - | HTLV-I-bearing MT-4 | MTT | >200 µg/mL |
| COc1cccc2[nH]cc(C(=O)C(=O)N3CCN(C(=O)c4ccccc4)C[C@H]3C)c12 | A018 | - | MT-2/CXCR4 | virus yield | 0.0236 µM |
| Cc1ncc(-c2ccc(OCCOc3ccc(C(=O)O)cc3)cn2)c(N2CCC(C)(C)CC2)c1[C@H](OC(C)(C)C)C(=O)O | NL4-3 | - | MT-2 | luminescence | 0.1259 µM |

Blank or dashed fields: not listed here. Rows are shuffled and stem from different studies.